Results from patent US20040039047A1 (priority 1998, published 2004).

Assays:
[1] = test system: human epidennoid cells, virally infected with HSV-2; experiment: Cell viability / cytotoxic and toxic concentrations in the same in vitro model; details: ballpark guideline; for Trichothecene in vitro concentration, Cytotoxic Lo: lower end of cytotoxic range; for Trichothecene in vitro concentration, Cytotoxic Hi: upper end of cytotoxic range
[2] = test system: human epidennoid cells, virally infected with HSV-2; details: concentrations of 10 ng/ml or less; cited from earlier work
[3] = test system: human epidennoid cells, virally infected with HSV-2; details: cited from earlier work; for Trichothecene in vitro concentration, Inhibitory 100%: 100% inhibition of hyperactive protein synthesis; for inhibition of hyperactive protein synthesis: by ~5 ng/ml

Row | Substance | Trichothecene in vitro concentration, Cytotoxic Lo [1] | Trichothecene in vitro concentration, Cytotoxic Hi [1] | cell viability [2] | Trichothecene in vitro concentration, Inhibitory 100% [3] | inhibition of hyperactive protein synthesis [3] | Trichothecene in vitro concentration, Inhibitory 80% ([3]; 80% inhibition of hyperactive protein synthesis)
1 | Satratoxin G | 6 ng/mL | 10 ng/mL | did not reduce cell viability | 5.0 ng/mL | 100% | 
2 | Roridin A | 6 ng/mL | 10 ng/mL | did not reduce cell viability | 5.0 ng/mL | 100% | 2.0 ng/mL
